Compound potency records, mixed from different reports. Data source: NIAID ChemDB in PubChem.

Shared fields: growth or infection tests

ECn is the concentration giving n% inhibition of infection, replication or growth.

| structure | method | agent | dose | cells | strain | measure | changes | value |
|---|---|---|---|---|---|---|---|---|
| Nc1ncnc2c1ncn2C[C@@H](CO)OCP(=O)(O)O | plaque count | Mouse cytomegalovirus | - | C1271 | Ganciclovir-resistant | EC50 | - | 8.5 µM |
| Nc1ncnc2c1ncn2C[C@H](CO)OCP(=O)(O)O | virus yield | Adenovirus | - | - | Chicago (type 1) | EC90 | - | 0.3 µg/mL |
| N[C@@H]1CN(c2c(F)cc3c(=O)c(C(=O)O)cn([C@@H]4C[C@@H]4F)c3c2Cl)CC12CC2 | - | Staphylococcus aureus | - | - | 25 strains (ofloxacin-resistant) | MIC90 | - | 4 µg/mL |
| O=C(O)P(=O)(O)O | plaque count | Varicella zoster virus | - | HEL | PMEDAP-resistant | EC50 | - | 42.4 µg/mL |
| CCOC(=O)Nc1cc2[nH]c(=O)c(-c3ccccc3)nc2c(N)n1 | - | Encephalitozoon intestinalis | 0.1 µg/mL | RK-13 | - | inhibition | - | 71% |
| Nc1nc2c(ncn2CCC(CO)CO)c(=O)[nH]1 | cytopathic effect | Herpes simplex virus 1 | - | HEL | KOS PMEDAP-resistant | EC50 | - | 0.23 µg/mL |
| CO[C@H]1/C=C/O[C@@]2(C)Oc3c(C)c(O)c4c(O)c(c(/C=N/N5CCN(C)CC5)c(O)c4c3C2=O)NC(=O)/C(C)=C\C=C\[C@H](C)[C@H](O)[C@@H](C)[C@@H](O)[C@@H](C)[C@H](OC(C)=O)[C@@H]1C | - | Staphylococcus aureus | - | - | 16 strains (methicillin- quinolone-resistant) | MIC90 | - | 1 µg/mL |
| COC(=O)Nc1nc2ccccc2[nH]1 | - | Cryptococcus neoformans | - | - | ATCC 14116 | EC90 | - | 2.3 µg/mL |
| Nc1nc2c(ncn2COCOCP(=O)(O)O)c(=O)[nH]1 | cytopathic effect | Parainfluenza virus | - | - | 14798 (TYPE 3) | EC50 | - | 100 µg/mL |
| CCc1nc(N)nc(N)c1-c1ccc(Cl)cc1 | cytopathic effect | Encephalitozoon cuniculi | 50 µg/mL | MRC-5 fibroblasts | - | inhibition | - | 35% |
| CCOC(=O)Nc1cc2c(c(N)n1)N=C(c1ccc3ccccc3c1)CS2 | - | Encephalitozoon intestinalis | 1 µg/mL | RK-13 | - | inhibition | - | 74.1% |
| Nc1nc2c(ncn2COC(CO)CO)c(=O)[nH]1 | cytopathic effect | Herpes simplex virus 1 | - | HEL | KOS PFA-resistant | EC50 | - | 0.002 µg/mL |
| C#CC[C@@H](C(=O)N[C@H](/C=C/C(=O)OCC)C[C@@H]1CCNC1=O)n1cccc(NC(=O)c2cc(C)on2)c1=O | cytopathic effect / XTT | Rhinovirus | - | H1-HELA | Serotype 29 | EC50 | - | 0.059 µM |
| NC(=O)c1ncn([C@@H]2O[C@H](CO)[C@@H](O)[C@H]2O)c1O | plaque count | Respiratory syncytial virus | - | HeLa | TYPE A/FM-58-8 | EC50 | - | 4.4 µg/mL |
| O=c1cnn([C@@H]2O[C@H](CO)[C@@H](O)[C@H]2O)c(=O)[nH]1 | virus yield | Dengue virus | - | VERO | Type 1 (Hawaii) | EC50 | - | <3.3 µg/mL |
| CCC(C)n1ncn(-c2ccc(N3CCN(c4ccc(OC[C@H]5CO[C@](Cn6cncn6)(c6ccc(Cl)cc6Cl)O5)cc4)CC3)cc2)c1=O | - | Candida albicans | - | - | Isogenic isolate 12 (25X) | MIC | - | 0.03 µg/mL |
| Nc1nc2c(ncn2CCC(CO)CO)c(=O)[nH]1 | plaque count | Varicella zoster virus | - | HEL | PCV-resistant/A | EC50 | - | 3.16 µg/mL |
| CN(C)[C@@H]1C(=O)C(C(N)=O)=C(O)[C@@]2(O)C(=O)C3=C(O)c4c(O)c(NC(=O)CNc5ccccc5)cc(F)c4C[C@H]3C[C@@H]12 | agar diffusion | Pseudomonas aeruginosa | - | - | 111-27853 | EC50 | - | >32 µg/mL |
| CO[C@H]1/C=C/O[C@@]2(C)Oc3c(C)c(O)c4c(=O)c(c5oc6cc(N7CCN(CC(C)C)CC7)cc(=O)c6nc5c4c3=C2O)NC(=O)/C(C)=C\C=C\[C@H](C)[C@H](O)[C@@H](C)[C@@H](O)[C@@H](C)[C@H](OC(C)=O)[C@@H]1C | - | Staphylococcus aureus | - | - | 20 strains (methicillin-resistant) | MIC50 | - | 0.0078 µg/mL |
| CCO/N=C/c1ccc(OCCC2CCN(c3ccc(C)nn3)CC2)cc1 | neutral red | Rhinovirus | - | KB | 58750 (ICAM-1 receptor group 43) | EC50 | - | 0.041 µM |
| CC(C)(CO)C(=O)SCCOP(=O)(NCc1ccccc1)OC[C@H]1O[C@@H](n2cnc3c(=O)[nH]c(N)nc32)[C@](C)(O)[C@@H]1O | replicon | Hepatitis C virus | - | Replicon cells | GT1b | fold resistance | R30E | 0.52 |
| C[C@H](Cc1ccc(O)c(O)c1)[C@@H](C)Cc1ccc(O)c(O)c1 | broth dilution | Candida albicans | - | - | CCC 125-2000 | MIC50 | - | 250 µg/mL |
| CCCCCCCCCCCCCCCCCCCCCCOCC(C)(COCCCCCCCCCCCCCCCCCCCCCC)CO[C@]1(C(=O)O)C[C@H](OS(=O)(=O)O)[C@@H](NC(C)=O)[C@H]([C@H](OS(=O)(=O)O)[C@@H](COS(=O)(=O)O)OS(=O)(=O)O)O1 | plaque count | Respiratory syncytial virus | - | HEP-2 | K686 | EC50 | - | 0.12 µM |
| NC(=O)c1ncn([C@@H]2O[C@H](CO)[C@@H](O)[C@H]2O)n1 | cytopathic effect | Measles virus | - | CV-1 | TN1994 | EC50 | - | 10 µg/mL |
| O=C(Nc1ncc([N+](=O)[O-])s1)c1ccccc1O | - | Vittaforma corneae | 0.001 µg/mL | RK-13 | - | inhibition | - | 31.7% |
| C=CCc1ccc(O)c(-c2ccc(O)c(CC=C)c2)c1 | broth dilution | Candida albicans | - | - | YL 338 | MIC | - | 64 µg/mL |
| C[C@H]1NCc2cc(-c3ccc4c(=O)c(C(=O)O)cn(C5CC5)c4c3OC(F)F)ccc21 | - | Staphylococcus aureus | - | - | 25 strains (methicillin-susceptible) | MIC90 | - | ≤0.06 µg/mL |
| CO[C@@H]1[C@@H](O[C@@H]2O[C@H](C)[C@@H](O[C@H]3C[C@@](C)(O)[C@@H](O)[C@H](C)O3)[C@H](N(C)C)[C@H]2O)[C@@H](CC=O)C[C@@H](C)[C@@H](O[C@H]2CC[C@H](N(C)C)[C@H](C)O2)/C=C/C=C/C[C@@H](C)OC(=O)C[C@H]1O | - | Toxoplasma gondii | 4 µg/mL | - | - | inhibition | - | 90% |
| CN(C)c1cc(NC(=O)CNC(C)(C)C)c(O)c2c1C[C@H]1C[C@H]3[C@H](N(C)C)C(=O)C(C(N)=O)=C(O)[C@@]3(O)C(=O)C1=C2O | broth dilution | Mycobacterium massiliense | - | - | V29 | MIC | - | 1 µg/mL |
| Nc1nccc2c1ncn2[C@@H]1C[C@H](CO)[C@@H](O)[C@H]1O | cytopathic effect | Vesicular stomatitis virus | - | E6SM | - | EC50 | - | 2 µg/mL |
| CO[C@H]1/C=C/O[C@@]2(C)Oc3c(C)c(O)c4c(O)c(c5c(c4c3C2=O)NC2(CCN(CC(C)C)CC2)N=5)=NC(=O)/C(C)=C\C=C\[C@H](C)[C@H](O)[C@@H](C)[C@@H](O)[C@@H](C)[C@H](OC(C)=O)[C@@H]1C | cytopathic effect | Encephalitozoon cuniculi | - | MRC-5 fibroblasts | - | EC50 | - | >20 µg/mL |
| NC(=O)c1nc(F)c[nH]c1=O | plaque count | Influenza C virus | - | MDCK | JJ/50 | EC50 | - | 0.03 µg/mL |
| COC(=O)Nc1nc2ccc(C(=O)c3cccs3)cc2[nH]1 | - | Cryptococcus neoformans | - | - | IU4 | EC50 | - | <0.22 µg/mL |
| Nc1ncc2c(ncn2COC(CO)CO)n1 | cytopathic effect | Herpes simplex virus 1 | - | HEL | KOS GCV-resistant | EC50 | - | 0.48 µg/mL |
| C[C@H]1CN(c2c(F)cc3c(=O)c(C(=O)O)cn(C4CC4)c3c2OC(F)F)CCN1 | - | Enterococcus faecium | - | - | 10 strains | MIC90 | - | 4 µg/mL |
| CC[C@H]1OC(=O)[C@H](C)[C@@H](O[C@H]2C[C@@](C)(OC)[C@@H](O)[C@H](C)O2)[C@H](C)[C@@H](O[C@@H]2O[C@H](C)C[C@H](N(C)C)[C@H]2O)[C@](C)(OC)C[C@@H](C)C(=O)[C@H](C)[C@@H](O)[C@]1(C)O | broth dilution | Mycobacterium abscessus | - | - | X6 | MIC | - | 1 µg/mL |
| O=c1[nH]c(=O)n([C@@H]2O[C@H](CO)[C@@H](O)[C@@H]2O)cc1/C=C/Br | plaque count | Varicella zoster virus | - | HEL | BVDU-resistant | EC50 | - | >20 µg/mL |
| CC(C)=CCN1c2cc(Cl)cc3[nH]c(=S)n(c23)C[C@@H]1C | - | HIV-1 | - | MT-4 | - | EC95 | RT-D67N K70R T215Y K219Q A98G | 0.2 µM |
| Nc1nc(N)c2ncn(CCOCP(=O)(O)O)c2n1 | plaque count | Mouse cytomegalovirus | - | C1271 | Ganciclovir-resistant | EC50 | - | 0.3 µM |
| CC(=O)Oc1ccccc1C(=O)Nc1ncc([N+](=O)[O-])s1 | - | Encephalitozoon intestinalis | 0.01 µg/mL | RK-13 | - | inhibition | - | 33.7% |
| Nc1nc2c(ncn2COCCOCP(=O)(O)O)c(=O)[nH]1 | plaque count | Mouse cytomegalovirus | - | C1271 | Ganciclovir-resistant | EC50 | - | 11.2 µM |
| C[C@@H]1CN(c2c(F)c(N)c3c(=O)c(C(=O)O)cn(C4CC4)c3c2F)C[C@H](C)N1 | - | Streptococcus pneumoniae | - | - | Clinical isolate 6678 | MIC | - | 0.5 µg/mL |
| CCOC(=O)Nc1cc2[nH]c(=O)c(-c3ccccc3)nc2c(NC(c2ccccc2)c2ccccc2)n1 | - | Encephalitozoon intestinalis | 0.1 µg/mL | RK-13 | - | inhibition | - | 75.8% |
| COc1c(N2CCNC(C)C2)c(F)cc2c(=O)c(C(=O)O)cn(C3CC3)c12 | - | Staphylococcus aureus | - | - | 25 strains (ofloxacin-resistant) | MIC50 | - | 8 µg/mL |
| COc1cc2oc(=O)ccc2cc1CC(O)C(C)(C)O | - | Klebsiella pneumoniae | - | - | ESBL-3971 | MIC | - | >250 µg/mL |
| COc1cc(Cc2cnc(N)nc2N)cc(OC)c1Br | - | Mycobacterium ulcerans | - | - | Isolate 8756 | MBC | - | 8 µg/mL |
| NC1CCN(c2nc3c(cc2F)c(=O)c(C(=O)O)cn3-c2ccc(F)cc2F)C1 | - | Staphylococcus aureus | - | - | 25 strains (ofloxacin-resistant) | MIC90 | - | 32 µg/mL |
| COc1cc(Cc2cnc(N)nc2N)cc(OC)c1OCCCNc1ccc(S(=O)(=O)c2ccc(N)cc2)cc1 | - | Mycobacterium ulcerans | - | - | Isolate 5143 | MIC | - | 1 µg/mL |
| CCn1cc(C(=O)O)c(=O)c2cc(F)c(N3CCN(C)CC3)cc21 | cytopathic effect | Encephalitozoon cuniculi | 20 µg/mL | MRC-5 fibroblasts | - | inhibition | - | 35% |
| Nc1ncnc2c1ncn2C[C@@H](CO)OCP(=O)(O)O | virus yield | Adenovirus | - | - | WT 300 (TYPE 5) | EC90 | - | 4 µg/mL |
| O=C(OC1Cc2c(O)cc(O)cc2OC1c1cc(O)c(O)c(O)c1)c1cc(O)c(O)c(O)c1 | broth dilution | Candida tropicalis | - | - | Clinical isolate 3 | MIC50 | - | >128 µg/mL |
| C[C@@H]1CN(c2c(F)c(N)c3c(=O)c(C(=O)O)cn(C4CC4)c3c2F)C[C@H](C)N1 | - | Haemophilus influenzae | - | - | 38 strains (ampicillin-susceptible) | MIC90 | - | 0.008 µg/mL |
| O=C(O)P(=O)(O)O | cytopathic effect | Herpes simplex virus 1 | - | HEL | KOS PFA-resistant | EC50 | - | 127 µg/mL |
| CC[C@H]1OC(=O)[C@H](C)[C@@H](O[C@H]2C[C@@](C)(OC)[C@@H](O)[C@H](C)O2)[C@H](C)[C@@H](O[C@@H]2O[C@H](C)C[C@H](N(C)C)[C@H]2O)[C@](C)(O)C[C@@H](C)/C(=N\OCOCCOC)[C@H](C)[C@@H](O)[C@]1(C)O | cytopathic effect | Encephalitozoon cuniculi | 50 µg/mL | MRC-5 fibroblasts | - | inhibition | - | 0% |
| Cc1onc(-c2ccccc2)c1C(=O)N[C@@H]1C(=O)N2[C@@H]1SC(C)(C)[C@@H]2C(=O)O | - | Staphylococcus aureus | - | - | 24 strains (ofloxacin-susceptible) | MIC50 | - | 64 µg/mL |
| Nc1nc(N)c2ncn(CCOCP(=O)(O)O)c2n1 | plaque count | Varicella zoster virus | - | HEL | PMEDAP-resistant | EC50 | - | 7.6 µg/mL |
| Cc1cn([C@@H]2O[C@H](CO)[C@@H](O)[C@@H]2O)c(=O)[nH]c1=O | cytopathic effect | Herpes simplex virus 1 | - | HEL | KOS PMEDAP-resistant | EC50 | - | 0.45 µg/mL |
| CCCOc1ccc2nc(NC(=O)OC)[nH]c2c1 | - | Cryptococcus neoformans | - | - | ATCC 14116 | EC50 | - | <2.1 µg/mL |
| Nc1ncnc2c1ncn2CCOCP(=O)(O)O | plaque count | Mouse cytomegalovirus | - | C1271 | HPMPC-resistant | EC50 | - | 2.3 µM |
| CC[C@H]1OC(=O)[C@H](C)[C@@H](O[C@H]2C[C@@](C)(OC)[C@@H](O)[C@H](C)O2)[C@H](C)[C@@H](O[C@@H]2O[C@H](C)C[C@H](N(C)C)[C@H]2O)[C@](C)(O)C[C@@H](C)CN(C)[C@H](C)[C@@H](O)[C@]1(C)O | cytopathic effect | Encephalitozoon cuniculi | 20 µg/mL | MRC-5 fibroblasts | - | inhibition | - | 0% |

Repeating the first 5 entries:

Nc1ncnc2c1ncn2C[C@@H](CO)OCP(=O)(O)O ; method: plaque count ; agent: Mouse cytomegalovirus ; cells: C1271 ; strain: Ganciclovir-resistant ; measure: EC50 ; value: 8.5 µM
Nc1ncnc2c1ncn2C[C@H](CO)OCP(=O)(O)O ; method: virus yield ; agent: Adenovirus ; strain: Chicago (type 1) ; measure: EC90 ; value: 0.3 µg/mL
N[C@@H]1CN(c2c(F)cc3c(=O)c(C(=O)O)cn([C@@H]4C[C@@H]4F)c3c2Cl)CC12CC2 ; agent: Staphylococcus aureus ; strain: 25 strains (ofloxacin-resistant) ; measure: MIC90 ; value: 4 µg/mL
O=C(O)P(=O)(O)O ; method: plaque count ; agent: Varicella zoster virus ; cells: HEL ; strain: PMEDAP-resistant ; measure: EC50 ; value: 42.4 µg/mL
CCOC(=O)Nc1cc2[nH]c(=O)c(-c3ccccc3)nc2c(N)n1 ; agent: Encephalitozoon intestinalis ; dose: 0.1 µg/mL ; cells: RK-13 ; measure: inhibition ; value: 71%

MIC50, MIC90 and the like: level of inhibition, or share of isolates inhibited. Rows are shuffled and stem from different studies. Percent inhibition refers to the dose given; in toxicity tests it is the harm to the cells. Blank or dashed fields: not listed here. Fold resistance: result on the changed form divided by that on wild type.